Taken from: PubChem BioAssay AID624099 (ICCB-Longwood, 2012)

- Screen: 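Knock-downs relieving repression by E2 of an HPV18 LCR luciferase reporter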 (primary screen)
- System: human C33A cervical carcinoma cells (HPV-negative) stably expressing BPV1 E2 and an HPV18 LCR luciferase reporter
- Reagent: siRNA pool against human genes, 40 nM
- Timing: 72 h
- Measurement: 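HPV18 LCR reporter light per well, converted to plate-wise z-scores that exclude control wells, and averaged over triplicate plates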
- Reading the numbers: mean z-score and z-score: higher = stronger reporter signal, weaker E2 silencing
- Call rule: 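Mean z ≥ 2 together with z ≥ 2 in two or more of the three replicates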
The deposit covers about 21,000 reagents; below is a random part of them. Of all reagents, 497 (2.4%) were called active. 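Higher z means weaker E2 silencing; only reporter increases were scored, and knock-downs that hurt cell survival may mask genuine repressor factors.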 The numbers tell different reagents against one gene apart.

| gene | reagent | mean z-score | z-score, replicate A | z-score, replicate B | z-score, replicate C | call |
| --- | --- | --- | --- | --- | --- | --- |
| FKBP6 (GeneID 8468) | 1 | 0.04 | 0.23 | 0.12 | -0.22 | inactive |
| GRASLND (GeneID 386597) | 1 | 0.47 | 0.35 | 0.12 | 0.93 | inactive |
| SCN1A (GeneID 6323) | 1 | 0.6 | 0.78 | 0.56 | 0.46 | inactive |
| NDUFB5 (GeneID 4711) | 1 | -0.84 | -0.83 | -0.56 | -1.12 | inactive |
| RCBTB1 (GeneID 55213) | 1 | 1.24 | 1.3 | 1.58 | 0.84 | inactive |
| GARRE1 (GeneID 9710) | 1 | -0.72 | -0.74 | -0.88 | -0.54 | inactive |
| SHC3 (GeneID 53358) | 1 | 0.69 | 0.65 | 1.06 | 0.35 | inactive |
| CHD9 (GeneID 80205) | 1 | 1.23 | 1.37 | 1.23 | 1.08 | inactive |
| TNFRSF10A-DT (GeneID 389641) | 1 | 0.59 | 0.66 | 0.45 | 0.67 | inactive |
| LOC388340 (retired record) (GeneID 388340) | 1 | 0.29 | 0.37 | 0.49 | 0.01 | inactive |
| PRODH (GeneID 5625) | 1 | -1.2 | -0.88 | -1.22 | -1.52 | inactive |
| STUM (GeneID 375057) | 1 | 1.23 | 1.3 | 1.17 | 1.21 | inactive |
| STUM (GeneID 375057) | 2 | 1.41 | 0.96 | 1.25 | 2.02 | inactive |
| HPS6 (GeneID 79803) | 1 | -1.27 | -1.22 | -1.23 | -1.37 | inactive |
| NMUR1 (GeneID 10316) | 1 | 0.62 | 0.46 | 0.4 | 0.99 | inactive |
| GRID1 (GeneID 2894) | 1 | -0.82 | -0.83 | -0.85 | -0.77 | inactive |
| GINS2 (GeneID 51659) | 1 | -0.66 | -0.6 | -0.67 | -0.72 | inactive |
| PKD1L1 (GeneID 168507) | 1 | -1.6 | -1.83 | -1.76 | -1.19 | inactive |
| TFAP2A (GeneID 7020) | 1 | -0.23 | -0.47 | -0.36 | 0.14 | inactive |
| LINC01554 (GeneID 202299) | 1 | 0.5 | 0.19 | 0.79 | 0.53 | inactive |
| TRIAP1 (GeneID 51499) | 1 | -0.9 | -0.63 | -1.22 | -0.84 | inactive |
| BAIAP3 (GeneID 8938) | 1 | 0.83 | 0.37 | 0.89 | 1.23 | inactive |
| COA4 (GeneID 51287) | 1 | -0.89 | -0.35 | -1.26 | -1.05 | inactive |
| TENM2 (GeneID 57451) | 1 | 0.16 | 0.42 | 0.02 | 0.04 | inactive |
| KLRB1 (GeneID 3820) | 1 | -1.09 | -1.37 | -1.05 | -0.85 | inactive |
| TCF12-DT (GeneID 145783) | 1 | 1.89 | 1.67 | 1.6 | 2.39 | inactive |
| RHOBTB3 (GeneID 22836) | 1 | -1.24 | -1.33 | -1.3 | -1.1 | inactive |
| ZNF26 (GeneID 7574) | 1 | 0.84 | 0.71 | 0.98 | 0.83 | inactive |
| LYZL1 (GeneID 84569) | 1 | -2.04 | -1.91 | -2.17 | -2.02 | inactive |
| LOC389339 (retired record) (GeneID 389339) | 1 | -0.03 | -0.23 | -0.04 | 0.18 | inactive |
| MRPL10 (GeneID 124995) | 1 | -1.55 | -1.63 | -1.43 | -1.59 | inactive |
| RPA1 (GeneID 6117) | 1 | 0.94 | 0.92 | 1.05 | 0.86 | inactive |
| CCDC40 (GeneID 55036) | 1 | -0.33 | -0.42 | -0.15 | -0.42 | inactive |
| LOC389085 (retired record) (GeneID 389085) | 1 | -0.42 | -0.63 | -0.79 | 0.14 | inactive |
| WIPF2 (GeneID 147179) | 1 | -0.64 | -1.19 | -0.54 | -0.2 | inactive |
| FLJ31132 (retired record) (GeneID 441522) | 1 | 0.57 | 0.14 | 0.64 | 0.93 | inactive |
| PPP6R1 (GeneID 22870) | 1 | 0.1 | 0.12 | 0.14 | 0.03 | inactive |
| ELAVL4 (GeneID 1996) | 1 | -0.84 | -1.04 | -0.67 | -0.8 | inactive |
| PKIG (GeneID 11142) | 1 | -0.04 | 0.04 | -0.14 | -0.01 | inactive |
| MASP2 (GeneID 10747) | 1 | 0.77 | 1.11 | 0.82 | 0.37 | inactive |
| UAP1L1 (GeneID 91373) | 1 | -0.56 | -0.77 | -0.3 | -0.62 | inactive |
| PLXNA1 (GeneID 5361) | 1 | 2.49 | 2.56 | 2.23 | 2.68 | active |
| EPPIN (GeneID 57119) | 1 | -0.8 | -0.99 | -0.87 | -0.54 | inactive |
| COPB2 (GeneID 9276) | 1 | -1.09 | -0.79 | -1.17 | -1.32 | inactive |
| YPEL3 (GeneID 83719) | 1 | 0.03 | 0.07 | 0.04 | -0.03 | inactive |
| TOB1-AS1 (GeneID 400604) | 1 | 0.16 | -0.02 | 0.22 | 0.26 | inactive |
| SMC4 (GeneID 10051) | 1 | -0.63 | -0.94 | -0.23 | -0.72 | inactive |
| POP7 (GeneID 10248) | 1 | -0.19 | 0.57 | -0.52 | -0.61 | inactive |
| BLK (GeneID 640) | 1 | 0.19 | 0.06 | 0.27 | 0.25 | inactive |
| LOC401065 (retired record) (GeneID 401065) | 1 | -0.21 | -0.21 | 0 | -0.41 | inactive |
| NYAP1 (GeneID 222950) | 1 | -2.4 | -2.36 | -2.44 | -1.72 | inactive |
| RPL18AP4 (GeneID 127545) | 1 | 0.33 | 0.43 | -0.05 | 0.6 | inactive |
| TNRC18 (GeneID 84629) | 1 | 2.2 | 1.97 | 2.11 | 2.51 | active |
| FEZ1 (GeneID 9638) | 1 | -0.5 | -0.46 | -0.24 | -0.79 | inactive |
| LOC399917 (retired record) (GeneID 399917) | 1 | 0.51 | 0.72 | 0.48 | 0.34 | inactive |
| RPS6KC1 (GeneID 26750) | 1 | -1.04 | -0.71 | -1.23 | -1.18 | inactive |
| RAD54L (GeneID 8438) | 1 | -0.21 | -0.37 | -0.19 | -0.06 | inactive |
| ZNF593 (GeneID 51042) | 1 | -0.36 | -0.21 | 0 | -0.87 | inactive |
| ARFGAP2 (GeneID 84364) | 1 | 0.13 | 0.32 | 0.18 | -0.1 | inactive |
| LOC400216 (retired record) (GeneID 400216) | 1 | -0.03 | 0.12 | 0.29 | -0.51 | inactive |
| LINC01854 (GeneID 151121) | 1 | -0.19 | -0.09 | -0.45 | -0.03 | inactive |
| DMXL1 (GeneID 1657) | 1 | 1.27 | 1.19 | 1.37 | 1.24 | inactive |
| MASTL (GeneID 84930) | 1 | -1.28 | -0.96 | -1.88 | -1 | inactive |
| MAN2A1 (GeneID 4124) | 1 | -1.43 | -1.59 | -1.52 | -1.18 | inactive |
| AP1G1 (GeneID 164) | 1 | 1.59 | 1.78 | 1.57 | 1.41 | inactive |
| FDFT1 (GeneID 2222) | 1 | 1.96 | 1.43 | 1.69 | 2.77 | inactive |
| EDN2 (GeneID 1907) | 1 | 0.53 | 0.79 | 0.46 | 0.33 | inactive |
| BTF3P11 (GeneID 690) | 1 | 0.53 | 0.82 | 0.68 | 0.08 | inactive |
| WWC1 (GeneID 23286) | 1 | -1.23 | -1.49 | -1.11 | -1.1 | inactive |
| TUSC7 (GeneID 285194) | 1 | 0.42 | 0.4 | 0.25 | 0.61 | inactive |
| BOD1L1 (GeneID 259282) | 1 | -0.45 | -0.07 | -0.83 | -0.44 | inactive |
| AKAP7 (GeneID 9465) | 1 | -0.38 | -0.59 | -0.39 | -0.18 | inactive |
| PCDHGA12 (GeneID 26025) | 1 | 0.05 | -0.01 | 0.17 | 0 | inactive |

Sorted by “z-score, replicate C” (ascending): some entries from above.
| gene | reagent | mean z-score | z-score, replicate A | z-score, replicate B | z-score, replicate C | call |
| --- | --- | --- | --- | --- | --- | --- |
| LYZL1 (GeneID 84569) | 1 | -2.04 | -1.91 | -2.17 | -2.02 | inactive |
| MRPL10 (GeneID 124995) | 1 | -1.55 | -1.63 | -1.43 | -1.59 | inactive |
| CCDC40 (GeneID 55036) | 1 | -0.33 | -0.42 | -0.15 | -0.42 | inactive |
| WIPF2 (GeneID 147179) | 1 | -0.64 | -1.19 | -0.54 | -0.2 | inactive |
| PPP6R1 (GeneID 22870) | 1 | 0.1 | 0.12 | 0.14 | 0.03 | inactive |
| LOC389085 (retired record) (GeneID 389085) | 1 | -0.42 | -0.63 | -0.79 | 0.14 | inactive |
| LOC389339 (retired record) (GeneID 389339) | 1 | -0.03 | -0.23 | -0.04 | 0.18 | inactive |
| RPA1 (GeneID 6117) | 1 | 0.94 | 0.92 | 1.05 | 0.86 | inactive |
| FLJ31132 (retired record) (GeneID 441522) | 1 | 0.57 | 0.14 | 0.64 | 0.93 | inactive |
